{
  "source": "patent US20090088377A1",
  "about": "“CYSTEIC ACID DERIVATIVES OF ANTI-VIRAL PEPTIDES” (priority 2007, published 2009)",
  "data": [
    {"test_system": "HIV-1 IIIB", "assay": "Anti-HIV efficacy evaluation in fresh human PBMCs (albumin conjugates vs original peptides)", "type": "cell-based", "settings": "PBMC-based assay against HIV-1 IIIB, in words", "description": "HIV-1 IIIB was obtained through the AIDS Research and Reference Reagent Program, Division of AIDS, NIAID, NIH courtesy of Dr. Robert C. […] Fresh human peripheral blood mononuclear cells (PBMCs), seronegative for HIV and HBV, were isolated from blood of screened donors (Biological Specialty Corporation; Colmar, Pa.) using Lymphocyte Separation Medium (LSM; Cellgro® by Mediatech, Inc.; density 1.078+/−0.002 g/ml) following the manufacturer's instructions. Cells were stimulated by incubation in 4 μg/mL Phytohemagglutinin (PHA; Sigma) for 48-72 hours. Mitogenic stimulation was maintained by the addition of 20 U/mL recombinant human IL-2 (R&D Systems, Inc) to the culture medium. PHA-stimulated PBMCs from at least two donors were pooled, diluted in fresh medium and added to 96-well plates at 5×10^4 cells/well. Cells were infected (final MOI≅0.1) in the presence of 9 different concentrations of test compounds (triplicate wells/concentration) and incubated for 7 days. […] Following removal of supernatant samples, compound cytotoxicity was measured by the addition of 3-(4,5-dimethylthiazol-2-yl)-5-(3-carboxymethoxyphenyl)-2-(4-sulfophenyl)-2H-tetrazolium (MTS; CellTiter 96 Reagent, Promega) following the manufacturer's instructions. […] AZT (nucleoside reverse transcriptase inhibitor) was used as the assay control compound.", "values": [
      {"substance": "E preformed conjugate-Compound IX: HSA Cys34 coupled via MPA-AEEA to the N-terminal end of T-20", "Antiviral activity compared to the original peptide inhibitors": "excellent retention of antiviral activity"},
      {"substance": "C preformed conjugate-Compound VII: HSA Cys34 coupled via MPA, absence of AEEA linker, to the N-terminus of C34", "Antiviral activity compared to the original peptide inhibitors": "essentially equipotent to C34 peptide and T-20"},
      {"substance": "F preformed conjugate-Compound X: acetylated T-20 with C-terminal K(εN)-AEEA-MPA coupled to Cys34 of HSA", "Antiviral activity compared to the original peptide inhibitors": "significant decrease in the antiviral activity"}
    ]}
  ]
}
